Patent publication US20080047904A1, “Treatment for Hydrostatic Testing Water” (priority 2004, published 2008)

Test: Corrosivity by Linear Polarization Resistance (LPR) in synthetic seawater
Format: physicochemical

In the case of `O=CCCCC=O` [Glutaraldehyde, glutaraldehyde], the “corrosion rate (LPR)” value (600 ppm glutaraldehyde, 60° C., Aerated synthetic seawater) is reported as 5.3 mpy, the “corrosion rate (LPR)” value (600 ppm glutaraldehyde, 60° C., Deaerated synthetic seawater) is reported as 4.8 mpy and the “corrosion rate (LPR)” value (600 ppm glutaraldehyde, Room temp., Aerated synthetic seawater) is reported as 6.4 mpy. For the same molecule, the “corrosion rate (LPR)” value (600 ppm glutaraldehyde, Room temp., Deaerated synthetic seawater) was 0.6 mpy, the “corrosion rate (LPR)” value (1200 ppm glutaraldehyde, 60° C., Aerated synthetic seawater) was 8.8 mpy and the “corrosion rate (LPR)” value (1200 ppm glutaraldehyde, 60° C., Deaerated synthetic seawater) was 5.5 mpy. The “corrosion rate (LPR)” value (1200 ppm glutaraldehyde, Room temp., Aerated synthetic seawater) was 9.2 mpy and the “corrosion rate (LPR)” value (1200 ppm glutaraldehyde, Room temp., Deaerated synthetic seawater) was 1.4 mpy.
